Anti-infective test results gathered from many reports (values: NIAID ChemDB through PubChem).

Shared fields: tests in culture; species: HIV-2; read by: cytopathic effect; measure: EC50

ECn: concentration that inhibits the pathogen or its effect by n%. An empty or dashed field is not shown. a–b is a range or a potency band. Rows are shuffled and stem from different studies.

structure	cells	strain or isolate	value
CC(C)(C)[Si](C)(C)OC[C@H]1O[C@@H](n2cc(I)c(=O)[nH]c2=O)[C@H](O[Si](C)(C)C(C)(C)C)C12OS(=O)(=O)C=C2N	MT-4	-	>5.7 µM
Cc1cn([C@H]2C=C[C@@H](CO)O2)c(=O)[nH]c1=O	CEM + CEM/O	-	0.12 µM
CO[C@H]1[C@H]2O[Si](C(C)C)(C(C)C)O[Si](C(C)C)(C(C)C)OC[C@@H]2O[C@@H]1c1ccccc1	CEM	ROD	>4 µg/mL
CC(C)CCC[C@@H](C)[C@H]1CC[C@H]2[C@@H]3CC[C@H]4C[C@@H](CCC=C(c5cc(Cl)c(O)c(C(=O)O)c5)c5cc(Cl)c(O)c(C(=O)O)c5)CC[C@]4(C)[C@H]3CC[C@]12C	CEM + CEM-SS	NIH-D2	5 µM
CC[C@@H](NS(=O)(=O)c1ccc(Cl)cc1)c1n[nH]c(=S)o1	MT-4	ROD	>125 µg/mL
Cc1cn([C@H]2C[C@H](N=[N+]=[N-])[C@@H](CO)O2)c(=O)[nH]c1=O	MT-4	ROD	0.0005 µg/mL
O=C1c2ccccc2N(Cc2ccccc2)S(=O)(=O)N1Cc1ccc(Cl)cc1	MT-4	ROD	≥50 µM
O=c1[nH]c(=O)n(Cc2cn(COCCO)nn2)cc1Br	MT-4	ROD	>100 µg/mL
O=S1(=O)N=C(OCc2ccccc2)c2ccccc2N1Cc1ccc(Cl)c(Cl)c1	MT-4	ROD	>250 µM
Cc1cn([C@@H]2O[C@H](C3CO[Si](C(C)C)(C(C)C)O[Si](C(C)C)(C(C)C)O3)C3(OS(=O)(=O)C=C3N)[C@H]2O)c(=O)[nH]c1=O	MT-4	ROD	>6.3 µM
O=c1[nH]c(=O)n([C@H]2CCC[C@H]2CO)cc1I	CEM	-	12.5 µg/mL
CC1(CO)CCC(Cn2cnc3c(N)nc(N)nc32)C1(C)C	CEM	-	14 µg/mL
C#C[C@H](O)C1=C[C@@H](n2cnc3c(N)ncnc32)[C@H](O)[C@@H]1O	CEM	-	>40 µg/mL
O=c1[nH]c(=O)n(Cc2cn(COCCO)nn2)cc1Cl	MT-4	ROD	>100 µg/mL
O=C1c2ccccc2N(COCc2ccccc2)S(=O)(=O)N1Cc1ccccc1	MT-4	ROD	5.2–10.8 µM
OC[C@H]1O[C@@H](c2ccccc2)[C@H](O)[C@@H]1O	CEM	ROD	>100 µg/mL
CCn1nc(CC(=O)N/N=C/c2ccccc2)nc1C	MT-4	ROD	>125 µg/mL
Cc1cc(C)c(CS(=O)c2cccc[n+]2[O-])c(C)c1	CEM	EHO	2.1 µg/mL
C#CCn1cc(Br)c(=O)[nH]c1=O	MT-4	ROD	>100 µg/mL
CC1(CO)CCC(Cn2nnc3c(Cl)nc(N)nc32)C1(C)C	CEM	-	>0.8 µg/mL
O=c1[nH]c(=O)n([C@H]2C[C@H](F)[C@@H](CO)O2)cc1Cl	MT-4	LAV-2	0.69 µM
C[C@@H](NS(=O)(=O)c1ccc(Cl)cc1)C(=O)NN	MT-4	ROD	>125 µg/mL
C=C1CN(S(=O)(=O)c2ccc(C)cc2)CCCN(Cc2ccccc2)CCCN(S(=O)(=O)c2ccc(C)cc2)C1	MT-4	EHO	0.2 µM
Cc1cn([C@@H]2O[C@H](C(CO[Si](C)(C)C(C)(C)C)O[Si](C)(C)C(C)(C)C)C3(OS(=O)(=O)C=C3N)[C@H]2O[Si](C)(C)C(C)(C)C)c(=O)[nH]c1=O	MT-4	ROD	>136 µM
CC(=O)OCCOCn1cc(Cn2ccc(=O)[nH]c2=O)nn1	MT-4	ROD	>100 µg/mL
Nc1ncnc2c1ncn2C[C@@H](CO)OCP(=O)(O)O	MT-4	LAV-2	>13 µM
N#Cc1ccc(Nc2nccc(C(Cl)c3cccc4ccccc34)n2)cc1	MT-4	ROD	11.3 µM
N#Cc1c(SSc2nsc(-c3ccccc3)c2C#N)nsc1-c1ccccc1	MT-4	ROD	17.4 µg/mL
Cc1ccc(C)c(C(C)S(=O)(=O)c2c(C)ccc[n+]2[O-])c1	CEM	ROD	>20 µg/mL
[C-]#[N+][C@H]1C[C@H](n2cc(C)c(=O)[nH]c2=O)O[C@@H]1CO	MT-4	LAV-2	0.8 µM
C[C@@H](Cn1cnc2c(=O)[nH]c(N)nc21)OCP(=O)(O)O	MT-4	LAV-2	26 µM
CSc1nsc(-c2ccc(OCc3ccccc3)cc2)c1C#N	MT-4	ROD	>125 µg/mL
CSCC[C@H](NS(=O)(=O)c1ccc(C)cc1)c1n[nH]c(=S)o1	MT-4	ROD	18 µg/mL
CC1(C)[C@@H](CCO)C[C@H]1n1nnc2c(N)nc(N)nc21	MT-4	-	>100 µg/mL
CCn1nc(CC(=O)NN=C(C)C)nc1C	MT-4	ROD	>108 µg/mL
CC1(C)[C@@H](CCO)C[C@H]1n1nnc2c(Cl)nc(N)nc21	CEM	-	>4 µg/mL
CC(C)(C)c1ccc(C(Cl)c2ccnc(Nc3ccc(C#N)cc3)n2)cc1	MT-4	ROD	32.9 µM
O=c1ccn([C@H]2C[C@H](F)[C@@H](CO)O2)c(=O)[nH]1	MT-4	LAV-2	0.16 µM
C=Cc1nc2c(N)ncnc2n1[C@H]1CC[C@@H](CO)O1	CEM	-	>20 µg/mL
COc1ccc(C(Cl)c2ccnc(Nc3ccc(C#N)cc3)n2)cc1	MT-4	ROD	33.6 µM
CN(C)c1ccn([C@@H]2O[C@H](CO[Si](C)(C)C(C)(C)C)C3(OS(=O)(=O)C=C3N)[C@H]2O[Si](C)(C)C(C)(C)C)c(=O)n1	MT-4	-	>166 µM
O=C1c2ccccc2N(Cc2ccccc2Cl)S(=O)(=O)N1COCc1ccccc1	MT-4	ROD	17.9–32.1 µM
Cc1cn([C@@H]2O[C@H](CO[Si](C)(C)C(C)(C)C)C3(OS(=O)(=O)C=C3N)[C@H]2O[Si](C)(C)C(C)(C)C)c(=O)nc1N	MT-4	-	>13.5 µM
O=S1(=O)N=C(OCc2ccc(Cl)cc2)c2ccccc2N1Cc1ccc(Cl)cc1	MT-4	ROD	>10 µM
Nc1nc(N)c2ncn(C[C@@H](CO)OCP(=O)(O)O)c2n1	MT-4	LAV-2	≥62 µM
COCCOCCOCCOC(=O)C1(C(=O)OCCOCCOCCOC)C2c3cc4c5c6c7c8c9c%10c(cc%11c9c9c(cc(c%12c9c8c5c3-%12)C21)C%11)C=CC1(C=C6C4)CN(CCOCCOCCN)CC%1071	CEM	ROD	>4 µM
O=c1ccn(C[C@H]2CCC[C@H]2CO)c(=O)[nH]1	CEM	-	>100 µg/mL
Nc1ncnc2c1ncn2C(CF)CCCO	CEM	ROD	>100 µg/mL
O=c1ccn([C@H]2CCC[C@H]2CO)c(=O)[nH]1	CEM	-	>100 µg/mL
N#Cc1c(SCCCSc2nsc(-c3ccccc3)c2C#N)nsc1-c1ccccc1	MT-4	ROD	>125 µg/mL
Nc1ccn(C(CF)CCCO)c(=O)n1	CEM	ROD	>100 µg/mL
CC1=CC(=C(c2ccc(N)c(S(=O)(=O)O)c2)c2ccc(N)c(S(=O)(=O)O)c2)C=C(S(=O)(=O)O)C1=N	MT-4	-	63 µM
Cc1cn([C@H]2C[C@H](N=[N+]=[N-])[C@@H](CO)O2)c(=O)[nH]c1=O	C8166	ROD	0.00307 µg/mL
Cc1ccc(C)c(CS(=O)c2ccc(Cl)c[n+]2[O-])c1	CEM	ROD	2 µg/mL
C=C[C@@H](O)C1=C[C@@H](n2cnc3c(N)ncnc32)[C@H](O)[C@@H]1O	CEM	-	>40 µg/mL
Cc1cnc(Nc2ccc(C#N)cc2)nc1C(Cl)c1ccc(Br)cc1	MT-4	ROD	10.3 µM
Cn1c([S-])nc2nc(-c3ccccc3)c(-c3ccccc3)nc2c1=O.Cn1c([S-])nc2nc(-c3ccccc3)c(-c3ccccc3)nc2c1=O.[O]=[V+2]	MT-4	ROD	18.95 µg/mL
C=C[C@H](O)C1=C[C@@H](n2cnc3c(N)ncnc32)[C@H](O)[C@@H]1O	CEM	-	>200 µg/mL
O=S1(=O)N=C(OCc2ccccc2)c2ccccc2N1Cc1ccccc1	MT-4	ROD	20 µM
Cc1ccc(C(C)S(=O)(=O)c2c(C)ccc[n+]2[O-])c(C)c1	CEM	ROD	>100 µg/mL
CC(=O)OCCOCn1cc(Cn2cc(Cl)c(=O)[nH]c2=O)nn1	MT-4	ROD	>100 µg/mL
Cc1cn([C@H]2C=C[C@@H](COC(=O)CC3(C)C[C@](C)(O)CO3)O2)c(=O)[nH]c1=O	MT-2	-	4 µM
CCc1nc(CC(=O)NN=C(C)C)nn1CC	MT-4	ROD	>98.5 µg/mL
CC1(CO)CCC(Cn2nnc3c(N)nc(N)nc32)C1(C)C	CEM	-	80 µg/mL
N#Cc1c(SCCCCSc2nsc(-c3ccccc3)c2C#N)nsc1-c1ccccc1	MT-4	ROD	>125 µg/mL
CC1(C)[C@@H](CCO)C[C@H]1n1nnc2c(N)ncnc21	MT-4	-	>100 µg/mL
Cc1ccnc2c1NC(=O)c1cccnc1N2C1CC1	MT-4	ROD	>20 µg/mL
O=C1c2ccccc2N(Cc2ccccc2Cl)S(=O)(=O)N1Cc1ccccc1Cl	MT-4	ROD	>2 µM

The last 8 rows once more:

| structure | cells | strain or isolate | value |
|---|---|---|---|
| CC(=O)OCCOCn1cc(Cn2cc(Cl)c(=O)[nH]c2=O)nn1 | MT-4 | ROD | >100 µg/mL |
| Cc1cn([C@H]2C=C[C@@H](COC(=O)CC3(C)C[C@](C)(O)CO3)O2)c(=O)[nH]c1=O | MT-2 | - | 4 µM |
| CCc1nc(CC(=O)NN=C(C)C)nn1CC | MT-4 | ROD | >98.5 µg/mL |
| CC1(CO)CCC(Cn2nnc3c(N)nc(N)nc32)C1(C)C | CEM | - | 80 µg/mL |
| N#Cc1c(SCCCCSc2nsc(-c3ccccc3)c2C#N)nsc1-c1ccccc1 | MT-4 | ROD | >125 µg/mL |
| CC1(C)[C@@H](CCO)C[C@H]1n1nnc2c(N)ncnc21 | MT-4 | - | >100 µg/mL |
| Cc1ccnc2c1NC(=O)c1cccnc1N2C1CC1 | MT-4 | ROD | >20 µg/mL |
| O=C1c2ccccc2N(Cc2ccccc2Cl)S(=O)(=O)N1Cc1ccccc1Cl | MT-4 | ROD | >2 µM |